Paper PMC6273635, “Synthesis and Structure-Activity Relationships of Imidazole-Coumarin Conjugates against Hepatitis C Virus” (Molecules, 2016)

Experiments:
[1] = test system: HCV genotype 1b subgenomic Huh 5-2 replicon system; experiment: Antiviral effect on HCV 1b subgenomic replicon replication in Huh 5-2 cells; format: cell-based, Hepatitis C virus; conditions: selectivity index, ratio of CC50 to EC50
Method: The antiviral activity of conjugated compounds 3a–g, 7a–e, 9a,b,d–f, and 11b,e,f in the HCV genotype 1b subgenomic Huh 5-2 replicon system was evaluated according to established procedures. On the basis of the dose-response curves that were obtained, the concentration of a compound that inhibited virus replication by 50% (i.e., EC50) and the concentration of compound that reduced host cell metabolism by 50% (i.e., CC50) were obtained. These values subsequently allowed us to calculate the selectivity index (i.e., SI = CC50/EC50), which is a measure for the therapeutic window of the compound in an assay system. […] The observed antiviral effect of other compounds was most likely related mainly to the pleiotropic or aspecific effect on the host cell.

[2] = test system: HCV genotype 1b subgenomic Huh 5-2 replicon system; set-up: method as in PMID 17977606; conditions: selectivity index, ratio of CC50 to EC50; reference known compounds; ref [11]; cited from earlier work

Structure (SMILES) | SI [1] | SI [2]
O=c1oc2ccccc2cc1CSc1ncc[nH]1 [Compound 3a, 2-[(Coumarin-3’-yl)methylthio]imidazole] | 4.1 | 
O=c1oc2ccc(F)cc2cc1CSc1ncc[nH]1 [Compound 3b, 2-[(6′-Fluorocoumarin-3′-yl)methylthio]imidazole] | 12–21 and 12 | 
O=c1oc2ccc(Cl)cc2cc1CSc1ncc[nH]1 [Compound 3c, 2-[(6′-Chlorocoumarin-3′-yl)methylthio]imidazole] | 8.8 | 
O=c1oc2ccc(Br)cc2cc1CSc1ncc[nH]1 [Compound 3d, 2-[(6′-Bromocoumarin-3′-yl)methylthio]imidazole] | 12–21 and 15 | 
COc1cccc2cc(CSc3ncc[nH]3)c(=O)oc12 [Compound 3e, 2-[(8′-Methoxycoumarin-3′-yl)methylthio]imidazole] | 12–21 and 21 | 
Cn1ccnc1SCc1cc2ccccc2oc1=O [Compound 3f, 1-Methyl-2-[(coumarin-3′-yl)methylthio]imidazole] | 7.3 | 
Cn1ccnc1SCc1cc2cc(Cl)ccc2oc1=O [Compound 3g, 1-Methyl-2-[(6′-chlorocoumarin-3′-yl)methylthio]imidazole] | 5.1 | 
O=c1oc2ccccc2cc1CSc1nccn1[C@@H]1O[C@H](CO)[C@@H](O)[C@H]1O [Compound 7a, 1-(β-D-Ribofuranos-1″-yl)-2-[(coumarin-3′-yl)methylthio]imidazole] | 2.2 | 
O=c1oc2ccc(F)cc2cc1CSc1nccn1[C@@H]1O[C@H](CO)[C@@H](O)[C@H]1O [Compound 7b, 1-(β-D-Ribofuranos-1″-yl)-2-[(6′-fluorocoumarin-3′-yl)methylthio]imidazole] | 4.7 | 
O=c1oc2ccc(Cl)cc2cc1CSc1nccn1[C@@H]1O[C@H](CO)[C@@H](O)[C@H]1O [Compound 7c, 1-(β-D-Ribofuranos-1″-yl)-2-[(6′-chlorocoumarin-3′-yl)methylthio]imidazole] | 6.3 | 
O=c1oc2ccc(Br)cc2cc1CSc1nccn1[C@@H]1O[C@H](CO)[C@@H](O)[C@H]1O [Compound 7d, 1-(β-D-Ribofuranos-1″-yl)-2-[(6′-bromocoumarin-3′-yl)methylthio]imidazole] | 5.7 | 
COc1cccc2cc(CSc3nccn3[C@@H]3O[C@H](CO)[C@@H](O)[C@H]3O)c(=O)oc12 [Compound 7e, 1-(β-D-Ribofuranos-1″-yl)-2-[(8′-methoxycoumarin-3′-yl)methylthio]imidazole] | 3.5 | 
O=c1oc2ccccc2cc1CSc1nc2c(=O)[nH]cnc2n1[C@@H]1O[C@H](CO)[C@@H](O)[C@H]1O [Compound 9a, 8-[(Coumarin-3′-yl)methylthio]inosine] | 1.8 | 
O=c1oc2ccc(F)cc2cc1CSc1nc2c(=O)[nH]cnc2n1[C@@H]1O[C@H](CO)[C@@H](O)[C@H]1O [Compound 9b, 8-[(6′-Fluorocoumarin-3′-yl)methylthio]inosine] | 1.4 | 
O=c1oc2ccc(Br)cc2cc1CSc1nc2c(=O)[nH]cnc2n1[C@@H]1O[C@H](CO)[C@@H](O)[C@H]1O [Compound 9d, 8-[(6′-Bromocoumarin-3′-yl)methylthio]inosine] | 1.3 | 
COc1cccc2cc(CSc3nc4c(=O)[nH]cnc4n3[C@@H]3O[C@H](CO)[C@@H](O)[C@H]3O)c(=O)oc12 [Compound 9e, 8-[(8′-Methoxycoumarin-3′-yl)methylthio]inosine] | 1.0 | 
Cc1ccc2oc(=O)c(CSc3nc4c(=O)[nH]cnc4n3[C@@H]3O[C@H](CO)[C@@H](O)[C@H]3O)cc2c1 [Compound 9f, 8-[(6′-Methylcoumarin-3′-yl)methylthio]inosine] | 1.0 | 
Nc1nc2c(nc(SCc3cc4cc(F)ccc4oc3=O)n2[C@@H]2O[C@H](CO)[C@@H](O)[C@H]2O)c(=O)[nH]1 [Compound 11b, 8-[(6′-Fluorocoumarin-3′-yl)methylthio]guanosine] | 1.0 | 
COc1cccc2cc(CSc3nc4c(=O)[nH]c(N)nc4n3[C@@H]3O[C@H](CO)[C@@H](O)[C@H]3O)c(=O)oc12 [Compound 11e, 8-[(8′-Methoxycoumarin-3′-yl)methylthio]guanosine] | 1.0 | 
Cc1ccc2oc(=O)c(CSc3nc4c(=O)[nH]c(N)nc4n3[C@@H]3O[C@H](CO)[C@@H](O)[C@H]3O)cc2c1 [Compound 11f, 8-[(6′-Methylcoumarin-3′-yl)methylthio]guanosine] | 1.0 | 
O=c1oc2ccccc2cc1CSc1nc2ccccc2[nH]1 [Compound 12a] |  | 3.4
O=c1oc2ccc(Br)cc2cc1CSc1nc2ccccc2[nH]1 [Compound 12d] |  | 10
COc1cccc2cc(CSc3nc4ccccc4[nH]3)c(=O)oc12 [Compound 12e] |  | 2.8

“And” between values parts separate entries of the source, which are not always exact repeats. Identical values can stand only once. Like-named read-outs stand apart in the source and are kept apart here.
